Experimental data taken from ChEMBL document CHEMBL1151959, “Identification and biological evaluation of a series of 1H-benzo[de]isoquinoline-1,3(2H)-diones as hepatitis C virus NS5B polymerase inhibitors” (J Med Chem, 2009).

Amino acid sequences for entries named in this document (tags omitted).
UniProt O39930, entry or part of it M423K: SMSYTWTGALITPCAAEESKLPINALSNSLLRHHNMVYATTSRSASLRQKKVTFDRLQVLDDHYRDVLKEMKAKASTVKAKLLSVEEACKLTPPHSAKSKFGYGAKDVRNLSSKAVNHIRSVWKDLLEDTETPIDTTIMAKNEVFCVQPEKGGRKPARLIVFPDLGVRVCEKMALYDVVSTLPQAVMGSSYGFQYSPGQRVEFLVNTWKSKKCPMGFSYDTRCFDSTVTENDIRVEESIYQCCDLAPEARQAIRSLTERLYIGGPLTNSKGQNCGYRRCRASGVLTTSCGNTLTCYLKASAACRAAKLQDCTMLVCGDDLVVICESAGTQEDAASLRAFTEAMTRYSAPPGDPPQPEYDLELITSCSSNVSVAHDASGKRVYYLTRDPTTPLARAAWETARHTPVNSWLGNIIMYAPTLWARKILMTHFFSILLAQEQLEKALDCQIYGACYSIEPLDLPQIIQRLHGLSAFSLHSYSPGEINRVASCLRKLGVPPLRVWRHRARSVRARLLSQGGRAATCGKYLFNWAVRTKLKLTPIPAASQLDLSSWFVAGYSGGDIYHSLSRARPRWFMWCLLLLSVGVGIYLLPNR
UniProt O39930, entry or part of it M414T: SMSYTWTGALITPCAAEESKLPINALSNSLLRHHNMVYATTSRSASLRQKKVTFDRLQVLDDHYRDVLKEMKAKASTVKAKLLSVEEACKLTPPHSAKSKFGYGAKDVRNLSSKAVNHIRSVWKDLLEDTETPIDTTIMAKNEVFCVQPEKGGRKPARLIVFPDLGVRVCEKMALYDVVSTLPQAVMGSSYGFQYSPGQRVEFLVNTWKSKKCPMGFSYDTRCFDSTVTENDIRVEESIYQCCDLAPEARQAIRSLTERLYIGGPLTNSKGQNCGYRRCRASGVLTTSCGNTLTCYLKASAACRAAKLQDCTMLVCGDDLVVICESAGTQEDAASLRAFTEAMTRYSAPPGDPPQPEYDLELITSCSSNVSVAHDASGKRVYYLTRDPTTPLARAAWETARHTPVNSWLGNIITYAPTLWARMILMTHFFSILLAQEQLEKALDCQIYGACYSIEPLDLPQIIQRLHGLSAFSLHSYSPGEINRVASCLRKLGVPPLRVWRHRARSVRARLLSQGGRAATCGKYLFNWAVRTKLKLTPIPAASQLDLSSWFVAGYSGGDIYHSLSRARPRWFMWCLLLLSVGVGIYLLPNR

Tests used:
Design in all cases: species or system Hepatitis C virus (isolate BK)
[1] = biological target: RNA-directed RNA polymerase (Hepacivirus hominis, UniProt O39930, M423K); assay: Inhibition of HCV1b BK NS5B Cdelta21 RNA dependent RNA polymerase Thumb site 2 M423K mutant
[2] = biological target: RNA-directed RNA polymerase (Hepacivirus hominis, UniProt O39930, M414T); assay: Inhibition of HCV1b BK NS5B Cdelta21 RNA dependent RNA polymerase Palm site 1 and 2 M414T mutant
[3] = Inhibition of HCV1b BK NS5B Cdelta21 RNA dependent RNA polymerase Thumb site 2 R501E mutant

## O=C1c2cccc3c(NCCO)ccc(c23)C(=O)N1c1cccc(Br)c1
[1]
  IC50: > 1000 nM
[2]
  IC50: 78 nM
[3]
  IC50: 500 nM
